Compound potency records, mixed from different reports. Data source: NIAID ChemDB in PubChem.

All rows: host cell toxicity; read-out: CC50

CCn: concentration that lowers growth or viability of the cells by n%.

{"smiles": "[2H]C(O)[C@@]1(C#C)O[C@@H](n2ccc3c(N)nc(Cl)nc32)C[C@@H]1O", "cells": "MT4-GFP", "read by": "luminescence", "result": ">42 µM"}
{"smiles": "COc1cc2c3cc1Oc1c4c(cc5c1[C@H](Cc1ccc(cc1)Oc1cc(ccc1OCCC(=O)c1ncc[nH]1)C[C@H]3N(C)CC2)N(C)CC5)OCO4", "cells": "U1", "read by": "MTT", "result": "1.1 µg/mL"}
{"smiles": "CO[C@@H]1[C@H](O)[C@@H](CO)O[C@H]1n1ccc(N)nc1=O", "cells": "HB110A", "read by": "MTS", "result": ">100 µM"}
{"smiles": "COc1cc2c3cc1Oc1c4c(cc5c1[C@H](Cc1ccc(cc1)Oc1cc(ccc1OCCNCc1ccccc1)C[C@H]3N(C)CC2)N(C)CC5)OCO4", "cells": "U1", "read by": "MTT", "result": "0.77 µg/mL"}
{"smiles": "O=c1[nH]c(=O)n([C@H]2C[C@H](F)[C@@H](CO)O2)cc1/C(Br)=C/I", "cells": "PBM", "result": "26.8 µM"}
{"smiles": "NCC(O)c1ccc(O)c(O)c1", "cells": "HeLa", "result": "75 µg/mL"}
{"smiles": "O=c1oc2c(O)c(O)cc3c(=O)oc4c(O)c(O)cc1c4c23", "cells": "BJ", "read by": "ATP", "result": ">26 µM"}
{"smiles": "CC(=O)c1cc(O)c(O)c(=O)cc1C", "cells": "HepDES19", "read by": "MTS", "conditions": "7 d", "result": "3.54 µM"}
{"smiles": "CC[C@H](/C=C/[C@@H](C)[C@H]1CCC2C3CC=C4C[C@@H](O)CC[C@]4(C)[C@@]3(C)CC[C@@]21C)C(C)C", "cells": "RAJI", "read by": "ATP", "result": ">26 µM"}
{"smiles": "COc1cc(C(=O)NC2N=C(c3ccccc3)c3ccccc3NC2=O)ccc1[N+](=O)[O-]", "cells": "HEP-2", "result": "1.5 µM"}
{"smiles": "COc1cc2c3cc1Oc1c4c(cc5c1[C@H](Cc1ccc(cc1)Oc1cc(ccc1OCCN1CCNCC1)C[C@H]3N(C)CC2)N(C)CC5)OCO4", "cells": "U1", "read by": "MTT", "result": "1.2 µg/mL"}
{"smiles": "Nc1ncnc2c1c(Br)cn2[C@@H]1O[C@H](CO)[C@@H](O)[C@H]1O", "cells": "PRK", "result": "0.4 µg/mL"}
{"smiles": "CC/C=C\\C[C@H]1C(=O)CC[C@@H]1CC(=O)O", "cells": "BJ", "read by": "ATP", "result": ">26 µM"}
{"smiles": "O=c1[nH]c(=O)n([C@H]2C[C@H](O)[C@@H](CO)O2)cc1C12B3B4B5B6B(B3B1B42)B1B5C61", "cells": "CFU-GM", "result": "25.6 µM"}
{"smiles": "CC1(C)CC[C@]2(C(=O)O)CC[C@]3(C)C(=CC[C@@H]4[C@@]5(C)C[C@@H](O)[C@H](O)[C@@](C)(CO)[C@@H]5CC[C@]43C)[C@@H]2C1", "cells": "BJ", "read by": "ATP", "result": ">26 µM"}
{"smiles": "[2H]C([2H])(O)[C@@]1(C#C)O[C@@H](n2cnc3c(N)nc(F)nc32)C[C@@H]1O", "cells": "MT4-GFP", "read by": "luminescence", "result": ">42 µM"}
{"smiles": "CS(=O)(=O)c1ccc(C(=O)NC2N=C(c3ccccc3)c3ccccc3NC2=O)c(Cl)c1", "cells": "HEP-2", "result": "1.5 µM"}
{"smiles": "CC[C@H](CC[C@@H](C)[C@H]1CCC2C3CC=C4C[C@@H](O)CC[C@]4(C)[C@@]3(C)CC[C@@]21C)C(C)C", "cells": "BJ", "read by": "ATP", "result": ">26 µM"}
{"smiles": "COC(=O)[C@@H]1c2cc3c(c(O)c2[C@@H](OC2OC(C)C(OC)C(C)(OC)C2OC)C[C@]1(C)O)C(=O)c1c(O)cc2c(c1C3=O)O[C@H]1O[C@]2(C)[C@H](O)[C@@H](N(C)C)[C@@H]1O", "cells": "HeLa", "result": "<10 µg/mL"}
{"smiles": "O=C1Nc2ccccc2C(c2ccccc2)=NC1NCc1cccc([N+](=O)[O-])c1", "cells": "VERO", "result": "30 µM"}
{"smiles": "CC(C)[C@@H](C)/C=C/[C@@H](C)[C@H]1CC[C@H]2C3=CC=C4C[C@@H](O)CC[C@]4(C)[C@H]3CC[C@]12C", "cells": "HeLa", "result": ">200 µg/mL"}
{"smiles": "CC(C)=CCC/C(C)=C/CC/C(C)=C/CC[C@@]1(C)CCc2cc(O)cc(C)c2O1", "cells": "RAJI", "read by": "ATP", "result": ">26 µM"}
{"smiles": "CN(C)c1ccccc1C(=O)NC1N=C(c2ccccc2)c2ccccc2NC1=O", "cells": "HEP-2", "result": "1.5 µM"}
{"smiles": "Cc1cn([C@H]2C[C@H](N=[N+]=[N-])[C@@H](CO)O2)c(=O)[nH]c1=O", "cells": "PBM", "result": ">100 µM"}
{"smiles": "O=C1C[C@@H](c2ccc(O)cc2)Oc2cc(O)c(-c3c(O)cc4c(c3O)C(=O)C[C@@H](c3ccc(O)cc3)O4)c(O)c21", "cells": "BSC-1", "read by": "visual reading", "result": "<23 µg/mL"}
{"smiles": "COc1ccc2cc3[n+](cc2c1OC)CCc1cc2c(cc1-3)OCO2", "cells": "HeLa", "result": "<10 µg/mL"}
{"smiles": "[2H]C#C[C@]1(CO)O[C@@H](n2cnc3c(N)nc(F)nc32)C[C@@H]1O", "cells": "MT4-GFP", "read by": "luminescence", "result": ">42 µM"}
{"smiles": "COc1ccccc1C(=O)NC1N=C(c2cccc(Cl)c2)c2ccccc2NC1=O", "cells": "HEP-2", "result": "1 µM"}
{"smiles": "[N-]=[N+]=N[C@H]1C[C@H](n2cc(/C(Br)=C\\I)c(=O)[nH]c2=O)O[C@@H]1CO", "cells": "PBM", "result": "26.2 µM"}
{"smiles": "CO[C@@H]1[C@@H](O[C@@H]2O[C@H](C)[C@@H](O[C@H]3C[C@@](C)(O)[C@@H](O)[C@H](C)O3)[C@H](N(C)C)[C@H]2O)[C@@H](CC=O)C[C@@H](C)[C@@H](O)/C=C/C=C/C[C@@H](C)OC(=O)C[C@H]1O", "cells": "HeLa", "result": "20 µg/mL"}
{"smiles": "[2H]C([2H])(O)[C@@]1(C#C)O[C@@H](n2ccc3c(N)nc(Cl)nc32)C[C@@H]1O", "cells": "MT4-GFP", "read by": "luminescence", "result": ">42 µM"}
{"smiles": "CCN1C[C@]2(COC)[C@H](O)CC(OC)[C@]34C1[C@H](CC23OC)[C@]1(OC(C)=O)[C@H]2[C@@H](OC(=O)c3ccccc3)[C@](O)(C[C@H]24)[C@@H](OC)[C@@H]1O", "cells": "HeLa", "result": "25 µg/mL"}
{"smiles": "[2H][C@@]1(O)C[C@H](n2cc(F)c3c(N)ncnc32)O[C@]1(C#C)CO", "cells": "MT4-GFP", "read by": "luminescence", "result": ">42 µM"}
{"smiles": "O=c1cc(-c2ccc(Oc3c(O)cc4oc(-c5ccc(O)cc5)cc(=O)c4c3O)cc2)oc2cc(O)cc(O)c12", "cells": "MDCK", "read by": "neutral red", "result": "2.2 µg/mL"}
{"smiles": "COc1ccc(Cl)c(C)c1C(=O)OC1CC(OC2C(O)CC(O[C@H]3CCC[C@@H]4[C@@H]3C=C[C@H]3CCCC/C=C/[C@@H]5C=C(C(=O)O)[C@H](C)C[C@]56OC(=O)C(=C6O)OC(=O)[C@@]43C)OC2C)OC(C)C1O", "cells": "HeLa", "result": "100 µg/mL"}

The last 3 rows once more:

smiles	cells	read by	conditions	result
[2H][C@@]1(O)C[C@H](n2cc(F)c3c(N)ncnc32)O[C@]1(C#C)CO	MT4-GFP	luminescence		>42 µM
O=c1cc(-c2ccc(Oc3c(O)cc4oc(-c5ccc(O)cc5)cc(=O)c4c3O)cc2)oc2cc(O)cc(O)c12	MDCK	neutral red		2.2 µg/mL
COc1ccc(Cl)c(C)c1C(=O)OC1CC(OC2C(O)CC(O[C@H]3CCC[C@@H]4[C@@H]3C=C[C@H]3CCCC/C=C/[C@@H]5C=C(C(=O)O)[C@H](C)C[C@]56OC(=O)C(=C6O)OC(=O)[C@@]43C)OC2C)OC(C)C1O	HeLa			100 µg/mL

Blank or dashed fields: not listed here. Conditions beyond the fields shown may differ between rows.